A mixed list of measured activities; the numbers were collected in NIAID ChemDB.

Common to all: enzyme or target tests

Percent inhibition refers to the dose given; in toxicity tests it is the harm to the cells. Two numbers with a dash give a range or band. ICn is the concentration giving n% inhibition. Blank or dashed fields: not listed here. Rows are shuffled and stem from different studies.

smiles,dose,protein,species,read-out,value
O=C(O)CCC(=O)N[C@H](C(=O)N[C@@H](CCC(=O)O)C(=O)N[C@@H](Cc1ccc2ccccc2c1)C(=O)N[C@@H](CS)C(=O)O)C1CCCCC1,1.67 µM,Nonstructural protein 3 NTPase/helicase,Hepatitis C virus,inhibition,50%
COc1nc(NCCN2CCOCC2)nc(Nc2ccc3[nH]ncc3c2)n1,0.1 µg/mL,DNA polymerase,Hepatitis B virus,inhibition,41%
O=C(O)CCC(=O)N[C@H](C(=O)N[C@@H](CCC(=O)O)C(=O)N[C@@H](Cc1ccc2ccccc2c1)C(=O)N[C@@H](CS)C(=O)O)C(c1ccccc1)c1ccccc1,16.7 µM,Nonstructural protein 3 NTPase/helicase,Hepatitis C virus,inhibition,42%
COc1nc(Nc2ccc3[nH]ncc3c2)nc(N2CCN(CCO)CC2)n1,0.01 µg/mL,DNA polymerase,Hepatitis B virus,inhibition,12%
O=C(O)CCC(=O)N[C@H](C(=O)N[C@@H](CCC(=O)O)C(=O)N[C@@H](CCC(=O)O)C(=O)NC1(C(=O)O)CC1)C(c1ccccc1)c1ccccc1,,Nonstructural protein 3 NTPase/helicase,Hepatitis C virus,IC50,>167 µM
CNC(=O)c1c(-c2ccc(F)cc2)oc2cc(N(CC(C)=O)S(C)(=O)=O)c(OC(C)C)cc12,,Nonstructural protein 5B,Hepatitis C virus,IC50,≤0.5 µM
O=C(Nc1ccc2[nH]ncc2c1)c1cc(NCCN2CCOCC2)c(F)cc1F,,Reverse transcriptase,Hepatitis B virus,IC50,0.01–0.1 µg/mL
CNC(=O)c1c(-c2ccc(F)cc2)oc2cc(N(C)S(C)(=O)=O)c(C3CC3)cc12,,Nonstructural protein 5B,Hepatitis C virus,IC50,≤0.5 µM
O=C(O)CCC(=O)N[C@H](C(=O)N[C@@H](CCC(=O)O)C(=O)N[C@H](C(=O)N[C@@H](CS)C(=O)O)C1CCCCC1)C(c1ccccc1)c1ccccc1,,Nonstructural protein 3 NTPase/helicase,Hepatitis C virus,IC50,>16.7 µM
COc1nc(Nc2ccc3[nH]ncc3c2)nc(N2CCCC2)n1,0.1 µg/mL,Nonstructural protein 5B,Hepatitis C virus,inhibition,20%
CC(=O)c1ccc(-c2cc(NS(=O)(=O)c3c(C)cccc3C)c(C(=O)O)s2)s1,,NS3 ATPase,Hepatitis C virus,IC50,<5 µM
O=C(O)CCCC(=O)N[C@@H](CCC(=O)O)C(=O)N[C@@H](CCC(=O)O)C(=O)NC1(C(=O)O)CC1,167 µM,Nonstructural protein 3 NTPase/helicase,Hepatitis C virus,inhibition,24%
NS(=O)(=O)c1ccc(CCNc2cc(C(=O)Nc3ccc4cn[nH]c4c3)c(F)cc2F)cc1,,Reverse transcriptase,Hepatitis B virus,IC50,0.01–0.1 µg/mL
CC[C@H](NC(=O)[C@@H](NC(=O)[C@@H](NC(=O)[C@H](CC(C)C)NC(=O)[C@@H](CCC(=O)O)NC(=O)[C@H](CC(=O)O)NC(C)=O)[C@@H](C)CC)C1CCCCC1)C(=O)CCc1ccc(OC)cc1,10 µM,HCV NS3 protease,Hepatitis C virus,inhibition,81%
COc1nc(Nc2ccc3[nH]ncc3c2)nc(NN2CCN(C)CC2)n1,1 µg/mL,Nonstructural protein 5B,Hepatitis C virus,inhibition,29%
O=C(Nc1ccc2[nH]ncc2c1)c1cc(NCCO)c(F)cc1F,1 µg/mL,Reverse transcriptase,Hepatitis B virus,inhibition,78%
CC(=O)N[C@@H](CCC(=O)O)C(=O)N[C@@H](CCC(=O)O)C(=O)N[C@@H](CS)C(=O)O,,Nonstructural protein 3 NTPase/helicase,Hepatitis C virus,IC50,>16.7 µM
CNC(=O)c1c(-c2ccc(F)cc2)oc2cc(N(C)S(C)(=O)=O)c(OCC(=O)O)cc12,,Nonstructural protein 5B,Hepatitis C virus,IC50,≤0.5 µM
COc1nc(Nc2ccc3cn[nH]c3c2)nc(-n2ccnc2)n1,1 µg/mL,Nonstructural protein 5B,Hepatitis C virus,inhibition,20%
CC(=O)Nc1nc(C)c(S(=O)(=O)Nc2cc(-c3ccccc3)sc2C(=O)O)s1,,NS3 ATPase,Hepatitis C virus,IC50,5–20 µM
COc1nc(Nc2ccc3cn[nH]c3c2)nc(NC2CC2)n1,1 µg/mL,Nonstructural protein 5B,Hepatitis C virus,inhibition,54%
CC(=O)N[C@H](C(=O)N[C@@H](CCC(=O)O)C(=O)N[C@@H](CCC(=O)O)C(=O)NC1(C(=O)O)CC1)C1CCCCC1,,Nonstructural protein 3 NTPase/helicase,Hepatitis C virus,IC50,>167 µM
Cc1ccccc1S(=O)(=O)Nc1cc(/C=C/c2ccc(Cl)cc2)sc1C(=O)O,,NS3 ATPase,Hepatitis C virus,IC50,5–20 µM
CCCC(=O)[C@H](CC)NC(=O)[C@@H](NC(=O)[C@@H](NC(=O)[C@H](CC(C)C)NC(=O)[C@@H](CCC(=O)O)NC(=O)[C@H](CC(=O)O)NC(C)=O)[C@@H](C)CC)C1CCCCC1,10 µM,HCV NS3 protease,Hepatitis C virus,inhibition,80%
CNC(=O)c1c(-c2ccc(F)cc2)oc2cc(N(C)S(C)(=O)=O)c(OCc3ncc[nH]3)cc12,,Nonstructural protein 5B,Hepatitis C virus,IC50,≤0.5 µM
O=C(O)c1sc(-c2ccccc2)cc1NS(=O)(=O)c1cc(F)c(Br)cc1F,,NS3 ATPase,Hepatitis C virus,IC50,<5 µM
O=C(O)CCC(=O)N[C@H](C(=O)N[C@@H](CCC(=O)O)C(=O)N[C@@H](CCC(=O)O)C(=O)N[C@@H](CS)C(=O)O)C(c1ccccc1)c1ccccc1,1.67 µM,Nonstructural protein 3 NTPase/helicase,Hepatitis C virus,inhibition,41%
COc1nc(NCCc2c[nH]c3ccccc23)nc(Nc2ccc3cn[nH]c3c2)n1,0.01 µg/mL,DNA polymerase,Hepatitis B virus,inhibition,20%
O=C(Nc1ccc2cn[nH]c2c1)c1cc(NCCc2ccccn2)c(F)cc1F,0.1 µg/mL,Reverse transcriptase,Hepatitis B virus,inhibition,38%
CC(=O)N[C@H](C(=O)N[C@@H](CCC(=O)O)C(=O)N[C@@H](Cc1ccc2ccccc2c1)C(=O)N[C@@H](CS)C(=O)O)C1CCCCC1,1.67 µM,Nonstructural protein 3 NTPase/helicase,Hepatitis C virus,inhibition,8%
O=C(Nc1ccc2[nH]ncc2c1)c1cc(NCCN2CCCC2)c(F)cc1F,0.01 µg/mL,Reverse transcriptase,Hepatitis B virus,inhibition,49%
Cc1ccc(C(=O)N(C)c2cc(-c3ccc(C#N)cc3)sc2C(=O)O)cc1,,NS3 ATPase,Hepatitis C virus,IC50,5–20 µM
CC[C@H](NC(=O)[C@@H](NC(=O)[C@@H](NC(=O)[C@H](CC(C)C)NC(=O)[C@@H](CCC(=O)O)NC(=O)[C@H](CC(=O)O)NC(C)=O)[C@@H](C)CC)C1CCCCC1)C(=O)/C=C/CCCC(C)C,,HCV NS3 protease,Hepatitis C virus,IC50,1–10 µM

The last 5 rows once more:

smiles | dose | protein | species | read-out | value
O=C(Nc1ccc2cn[nH]c2c1)c1cc(NCCc2ccccn2)c(F)cc1F | 0.1 µg/mL | Reverse transcriptase | Hepatitis B virus | inhibition | 38%
CC(=O)N[C@H](C(=O)N[C@@H](CCC(=O)O)C(=O)N[C@@H](Cc1ccc2ccccc2c1)C(=O)N[C@@H](CS)C(=O)O)C1CCCCC1 | 1.67 µM | Nonstructural protein 3 NTPase/helicase | Hepatitis C virus | inhibition | 8%
O=C(Nc1ccc2[nH]ncc2c1)c1cc(NCCN2CCCC2)c(F)cc1F | 0.01 µg/mL | Reverse transcriptase | Hepatitis B virus | inhibition | 49%
Cc1ccc(C(=O)N(C)c2cc(-c3ccc(C#N)cc3)sc2C(=O)O)cc1 |  | NS3 ATPase | Hepatitis C virus | IC50 | 5–20 µM
CC[C@H](NC(=O)[C@@H](NC(=O)[C@@H](NC(=O)[C@H](CC(C)C)NC(=O)[C@@H](CCC(=O)O)NC(=O)[C@H](CC(=O)O)NC(C)=O)[C@@H](C)CC)C1CCCCC1)C(=O)/C=C/CCCC(C)C |  | HCV NS3 protease | Hepatitis C virus | IC50 | 1–10 µM